The subject of experiment [1] is NL4-3 HIV-1 (NL4-3-renilla). Type of experiment: cell-based. The following applies: PBMC, day 2, 10^6 RLU virus (untreated 4.38 ± 0.49).
Experiment [2] has as its target T1, gp120 MN/HS interaction (Human immunodeficiency virus type 1 group M subtype B, UniProt P05877).
T1 construct: of mCD4-HS12 for MN and YU2 gp120
Briefly: Biacore inhibition of gp120 MN binding to HS surface. Details: species or system HIV. The following applies: gp120 MN and inhibitors at 40 nM. As for the experimental part:
FIG. 5: Diagram representing the binding of gp120 (MN) to HS.
(§1) Two different gp120 were used, originating from a type X4 isolate (gp120 MN) and a type R5 isolate (gp120 YU2). The capacity of different molecules to inhibit gp120 interactions with various receptors or co-receptors is measured by surface plasmonic resonance (Biacore). To do this, three compounds are immobilized on the surface of a biosensor (Sensorchip CM 4 Biacore) in accordance with the described procedure (Vives et al. J. Biol. Chem. 279, 54327-54333, 2005). These are CD4, HS (or heparin) and a monoclonal antibody (mAb 17b). This antibody recognizes the epitope induced by CD4 and mimics co-receptor CCR5 or CXCR4. These three surfaces represent the three main molecules on the cell surface recognized by gp120 (CD4, co-receptors and HS).
(§2) In the set of experiments described below, gp120 (light lines on FIGS. 4 to 6) alone or pre-incubated with the compound to be tested (heavy lines on FIGS. 4 to 6) is injected onto these surfaces, and the interaction signal is measured as a function of time for five minutes.

In experiment [3] the test system is R5-tropic HIV-1/Ba-L. The experiment is described as follows: Antiviral assay, PHA-P-activated PBMC infected with HIV-1/Ba-L, RT activity in supernatants. As to conditions: Table 6, /Ba-L (R5), 100 TCID50, day 7, RT activity, ±S.D. Type of experiment: cell-based.
The target in experiment [4] is T2, YU2 gp120 (R5) (Human immunodeficiency virus type 1 group M subtype B, UniProt P35961).
T2 construct: of mCD4-HS12 for MN and YU2 gp120
The experiment is described as follows: Surface plasmon resonance binding of mCD4-HS12 to immobilized YU2 gp120. Details: species or system HIV. As to conditions: read-out: Kd = koff1/kon1. As for the experimental part: (§3) FIG. 9. The mCD4-HS12 (3) binds to gp120 unmasks and blocks the gp120 coreceptor binding site. Overlay of sensorgrams showing the binding of mCD4-HS12 (25), at (from top to bottom) 76, 51, 37, 22, 15 and 10 nM, to immobilized YU2 (a) or MN (b) gp120. mCD4 (black) or mCD4-HS12 (25) (bold) were injected for 5 mins (100 to 400 s) at 200 nM over a YU2 (c,e) or MN (d,f) activated sensorchip, after which mAb 17b (c,d) or mAb E51 (e,f) were injected for a further 5 mins (400 to 700 s). The binding responses (in RU) were recorded as a function of time (in s). […]
(§4) Association (kon) and dissociation (koff) rate constants (the mean of two independent analyses) of mCD4-HS12 (25) for MN and YU2 gp120 were determined by fitting the primary data of FIGS. 9a,b using the Biaeval 3.1 software. […] However, some deviations of the data from this model were observed, as measured by the χ^2 parameter (which describes the closeness of the fit). […] However this cannot be quantified here because, for the bivalent binding model, the association rate constant for the second binding site is in RU^−s^−1 (the reaction involves the complex (in RU) binding to ligand (also in RU)), and not in M^−1s^−1.
A general note: In SPR one partner is held on a chip, and binding of the other changes the refractive index at the surface.

In experiment [5] the test system is Δenv + VSVg-HIV-1 (Δenv+VSVg-luc). Type of experiment: cell-based, HIV-1 pseudotyped with VSV-G.
Experiment [6] deals with gp120 YU2/CD4 interaction (Human immunodeficiency virus type 1 group M subtype B, UniProt P35961). Briefly: Biacore inhibition of gp120 YU2 binding to CD4 surface. Details: species or system HIV. As to conditions: gp120 YU2 (R5) and inhibitors at 100 nM. As for the experimental part:
as §1, §2

Experiment [7] addresses gp120 MN/mAb 17b interaction (Human immunodeficiency virus type 1 group M subtype B, UniProt P05877). The experiment is described as follows: Biacore gp120 MN binding to mAb 17b surface. The arrangement: species or system HIV. As for the experimental part: (§5) FIG. 6: Diagram representing the binding of gp120 (YU2 or MN) to mAb 17b.
(§6) FIG. 7: Diagram representing the binding of gp120 MN (top) or YU2 (bottom) to mAb 17b.
as §1, §2
(§7) The quantity of gp120 bound to the antibody is measured at the end of the injection.

Experiment [8] deals with gp120 YU2/mAb 17b interaction (Human immunodeficiency virus type 1 group M subtype B, UniProt P35961). Briefly: Biacore gp120 YU2 binding to mAb 17b surface. Details: species or system HIV. As for the experimental part:
as §5, §6, §1, §2, §7

Experiment [9] concerns the target gp120 MN/CD4 interaction (Human immunodeficiency virus type 1 group M subtype B, UniProt P05877). The experiment is described as follows: Biacore inhibition of gp120 MN binding to CD4 surface. Details: species or system HIV. The following applies: gp120 MN (X4) and inhibitors at 100 nM. As for the experimental part: as §1, §2
Experiment [10] has as its target T3, MN gp120 (X4) (Human immunodeficiency virus type 1 group M subtype B, UniProt P05877).
T3 construct: of mCD4-HS12 for MN and YU2 gp120
Briefly: Surface plasmon resonance binding of mCD4-HS12 to immobilized MN gp120. The arrangement: species or system HIV. The following applies: read-out: Kd = koff1/kon1. As for the experimental part:
as §3, §4

Experiment [11] has as its system X4-tropic HIV-1-LAI. Briefly: Antiviral assay, PHA-P-activated PBMC infected with HIV-1-LAI, RT activity in supernatants. Format: cell-based. The following applies: Table 6, LAI (X4), 100 TCID50, day 7, RT activity, ±S.D.
Setting [12] is: read-out: ED50 (the source's name).
[13] abbreviates: Bivalent binding model, initial binding step.

The structures appear in SMILES notation. “And” between values parts separate entries of the source, which are not always exact repeats. Identical values can stand only once. Like-named read-outs stand apart in the source and are kept apart here.

With `CC(C)C[C@@H]1NC(=O)CNC(=O)[C@H](CC(C)C)NC(=O)[C@H](CO)NC(=O)[C@H](CO)NC(=O)[C@@H]2CSSC[C@@H](C(=O)N[C@H](C(N)=O)C(C)C)NC(=O)[C@H](C)NC(=O)[C@@H]3CSSC[C@H](NC(=O)[C@H](CCCCNC(=O)CCOCCOCCNC(=O)CCN4C(=O)CC(SCCC(=O)NCCCCCO[C@@H]5O[C@H](COS(=O)(=O)O)[C@@H](O[C@@H]6O[C@@H](C(=O)O)[C@@H](O[C@H]7O[C@H](COS(=O)(=O)O)[C@@H](O[C@@H]8O[C@@H](C(=O)O)[C@@H](O[C@H]9O[C@H](COS(=O)(=O)O)[C@@H](O[C@@H]%10O[C@@H](C(=O)O)[C@@H](O[C@H]%11O[C@H](COS(=O)(=O)O)[C@@H](O[C@@H]%12O[C@@H](C(=O)O)[C@@H](O[C@H]%13O[C@H](COS(=O)(=O)O)[C@@H](O[C@@H]%14O[C@@H](C(=O)O)[C@@H](O[C@H]%15O[C@H](COS(=O)(=O)O)[C@@H](O[C@@H]%16O[C@@H](C(=O)O)[C@@H](O)[C@H](O)[C@H]%16OS(=O)(=O)O)[C@H](O)[C@H]%15NS(=O)(=O)O)[C@H](O)[C@H]%14OS(=O)(=O)O)[C@H](O)[C@H]%13NS(=O)(=O)O)[C@H](O)[C@H]%12OS(=O)(=O)O)[C@H](O)[C@H]%11NS(=O)(=O)O)[C@H](O)[C@H]%10OS(=O)(=O)O)[C@H](O)[C@H]9NS(=O)(=O)O)[C@H](O)[C@H]8OS(=O)(=O)O)[C@H](O)[C@H]7NS(=O)(=O)O)[C@H](O)[C@H]6OS(=O)(=O)O)[C@H](O)[C@H]5NS(=O)(=O)O)C4=O)NC(=O)[C@H](Cc4c[nH]cn4)NC(=O)[C@H](CC(C)C)NC(=O)[C@H](CC(N)=O)NC(=O)CCSSC[C@H](NC(=O)[C@H](CCCNC(=N)N)NC(=O)CNC(=O)[C@H](CC(C)C)NC1=O)C(=O)N[C@@H](C)C(=O)NCC(=O)N[C@@H](CO)C(=O)N[C@@H](Cc1ccc(-c4ccccc4)cc1)C(=O)N3)C(=O)N[C@@H](CCC(N)=O)C(=O)N[C@@H](CC(C)C)C(=O)N[C@@H](CCCNC(=N)N)C(=O)N2` (stereo partly drawn) [mCD4-HS12, mCD4-PEO2-dodecasaccharide], the Luciferase activity is 0.142 ± 0.64 RLU×10^−5 in experiment [1] (mCD4-HS12 5 nM); 0.047 ± 0.06 RLU×10^−5 in experiment [1] (mCD4-HS12 20 nM); 0.035 ± 0.05 RLU×10^−5 in experiment [1] (mCD4-HS12 100 nM); 8.97 ± 0.26 RLU×10^−5 and 6.70 ± 2.9 RLU×10^−5 and 6.50 ± 1.13 RLU×10^−5 in [5]. The “inhibition of gp120/HS interaction” value in experiment [2] was “totally inhibit the interaction”. The results for the ED70 in experiment [3] and in [11] were 4.9 ± 0.3 nM and 2.05 ± 0.55 nM, respectively. Moreover, the figures for the ED90 in experiment [3] and in [11] were 11.1 ± 7.6 nM and 3.0 ± 0.65 nM, respectively. The EC50 in [3] (setting [12]) was 2.4 ± 1.9 nM; in experiment [11] (setting [12]) it was 1.4 ± 0.9 nM. For the same compound, the Kd in [4] (1:1 Langmuir model) is 2.7 nM; in [4] (setting [13]), 7.2 nM; in experiment [10] (1:1 Langmuir model), 3.7 nM; in experiment [10] (setting [13]) it was 10 nM. Also, the “inhibition of gp120/CD4 interaction” value in experiment [6] and in experiment [9] was “inhibits the gp120/CD4 interaction more strongly than mCD4” throughout. The “effect on gp120-17b interaction” value in [7] (40 nM gp120 MN co-incubated with 0 to 80 nM, FIG. 7) is reported as “strongly inhibits the gp120-17b interaction”; in [8] (40 nM gp120 YU2 co-incubated with 0 to 80 nM, FIG. 7) it was “strongly inhibits the gp120-17b interaction”. For the same compound, the “effect on gp120 binding to mAb 17b” value in experiment [7] (gp120 MN and inhibitors at 40 nM, FIG. 6) is reported as “totally inhibit the interaction”; in [8] (gp120 YU2 and inhibitors at 40 nM, FIG. 6) it was “totally inhibit the interaction”.

Values taken from patent US9295730B2, “Conjugated molecules comprising a peptide derived from the CD4 receptor coupled to a polyanion for the treatment of AIDS” (Institut Pasteur, priority 2008, dated 2016).
